Like-named read-outs stand apart in the source and are kept apart here. Some results come without the dose or concentration used.
How the values were obtained:
DC2.4 cells = format: cell-based, murine; conditions: LC-MRM
LET1 cells = format: cell-based, murine; conditions: LC-MRM

HA-41-49 (VTVTHSVNL)
direct presentation, epitope abundance (DC2.4 cells; DC2.4, replicate DC-2): 107.004 | direct presentation, epitope abundance (DC2.4 cells; DC2.4, replicate DC-3): 79.3168 | direct presentation, epitope abundance (LET1 cells; LET1, replicate LET-1): 42.8556 | direct presentation, epitope abundance (LET1 cells; LET1, replicate LET-2): 35.4904 | direct presentation, epitope abundance (LET1 cells; LET1, replicate LET-3): 53.2776
